Results as given in patent US5453533A (priority 1994, dated 1995).

System: influenza NA
Assay: In vitro inhibition of influenza neuraminidase, whole virus
Type: biochemical, influenza virus type A or type B
Details: read-out: IC50 constants; three selected inhibitors

Structure (SMILES) | IC50
CC(=O)Nc1c(O)cc(C(=O)O)cc1[N+](=O)[O-] [Compound 105, 4-(acetylamino)-3-hydroxy-5-nitrobenzoic acid] | 5 mM
CC(=O)Nc1c(N)cc(C(=O)O)cc1O.Cl [Compound 106, 3-amino-4-(acetylamino)-5-hydroxybenzoic acid, hydrochloride] | 10 mM
CC(=O)Nc1ccc(C(=O)O)cc1N [Compound 108, 4-(acetylamino)-3-aminobenzoic acid] | 20 mM
